Data on one compound can be found in US8563588B2, “Imidazolone derivatives, method for the preparation thereof and biological applications” (Universite de Rennes 1, priority 2007, dated 2013).

In the experiment the target is Rat recombinant DYRK1A (Rattus norvegicus, UniProt Q63470). Briefly: Assaying of the kinase activity of DYRK1A (33P-ATP, myelin basic protein, P81 filter).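 Note: GST fusion rat DYRK1A made in E. coli, scintillation counting of label bound to substrate, activity as percent of the inhibitor-free maximum after blank subtraction.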 Format: biochemical. The following applies: 15 μM ATP, 30° C., 30 min.

Each structure is given as a SMILES string.

Usually IC50 stands for the concentration at which inhibition is half-maximal. `CN1C(=O)/C(=C/c2ccc3c(c2)OCO3)N=C1SCCCl` [ST381]: the IC50 was 440 nM.
